## Share of PSTVd loop 15 variants by leaf site

Source: Wu et al. 2024 (doi:10.1371/journal.ppat.1012142), supplementary data.

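A pool of all variants was put on leaves of three Nicotiana benthamiana plants. Progeny were sequenced from the inoculated region (day 5), the margin of the inoculated leaf (day 10) and systemic leaves (day 12).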

The pool varies loop 15 of the PSTVd intermediate strain in the pattern GGAAACCGNNNNNNC; wild type is GGAAACCGCUACUAC (upper and lower strand joined, each 5' to 3', the first 7 letters being the upper strand, closing pairs included).

Numbers give reads per thousand; 0 = not seen among the reads, higher = more abundant. Each site shows the three plants. "Pool" is the share in the plasmid pool used as inoculum, on the same scale. The inoculated region was read from the minus strand, the other sites from the plus strand.

| sequence | pool | inoculated region | leaf margin | systemic leaves |
|---|---|---|---|---|
| GGAAACCGGCCACGC | 0.272 | 0.0819 / 0.129 / 0.190 | 0 / 0 / 0.0801 | 0 / 0 / 0 |
| GGAAACCGUAGGCCC | 0.256 | 0.213 / 0.225 / 0.133 | 0 / 0 / 0 | 0.0161 / 0 / 0 |
| GGAAACCGACCCUUC | 0.256 | 0.0491 / 0.145 / 0.114 | 0 / 0.0223 / 0.0200 | 0 / 0 / 0 |
| GGAAACCGUUCGGGC | 0.256 | 0.0655 / 0.0643 / 0.133 | 0.0162 / 0.0223 / 0 | 0 / 0 / 0 |
| GGAAACCGUAUUCCC | 0.192 | 0.0983 / 0.0803 / 0.0571 | 0 / 0.0223 / 0.0200 | 0 / 0 / 0 |
| GGAAACCGGCUGUGC | 0.240 | 0.0983 / 0.0321 / 0.0571 | 0 / 0.0445 / 0 | 0 / 0 / 0 |
| GGAAACCGGGGCUGC | 0.352 | 0.0983 / 0.0643 / 0.0762 | 0 / 0.0223 / 0.0200 | 0 / 0 / 0 |
| GGAAACCGGUAUGCC | 0.128 | 0.131 / 0.0482 / 0.114 | 0 / 0 / 0.0200 | 0.0161 / 0 / 0 |
| GGAAACCGGCAUUGC | 0.288 | 0.115 / 0.112 / 0.171 | 0.0162 / 0 / 0 | 0.0161 / 0 / 0 |
| GGAAACCGAGUCUGC | 0.176 | 0.115 / 0.0321 / 0.133 | 0.0162 / 0 / 0 | 0 / 0 / 0 |
| GGAAACCGCACCAUC | 0.400 | 0.0819 / 0.129 / 0.133 | 0.0323 / 0 / 0.0200 | 0.0161 / 0 / 0 |
| GGAAACCGGUAGUUC | 0.240 | 0.229 / 0.402 / 0.343 | 0.146 / 0.0445 / 0.200 | 0 / 0.0303 / 0.114 |
| GGAAACCGAGUGCGC | 0.288 | 0.131 / 0.177 / 0.0571 | 0 / 0 / 0 | 0 / 0 / 0 |
| GGAAACCGUGCAGCC | 0.304 | 0.0819 / 0.0803 / 0.0952 | 0 / 0 / 0.0200 | 0.0161 / 0 / 0 |
| GGAAACCGGUUUUGC | 0.240 | 0.0655 / 0.0482 / 0.133 | 0 / 0 / 0 | 0.0161 / 0 / 0 |
| GGAAACCGUGGUGAC | 0.224 | 0.0164 / 0.0964 / 0.114 | 0.0162 / 0 / 0.0200 | 0 / 0 / 0 |
| GGAAACCGGUACGAC | 0.192 | 0.115 / 0.0643 / 0.0952 | 0 / 0 / 0 | 0 / 0.0151 / 0 |
| GGAAACCGAUCAUUC | 0.192 | 0.213 / 0.386 / 0.533 | 0.113 / 0.134 / 0.140 | 0.0322 / 0.0151 / 0 |
| GGAAACCGUAAGGCC | 0.208 | 0.0655 / 0.112 / 0.114 | 0 / 0 / 0 | 0 / 0 / 0 |
| GGAAACCGGUCAGAC | 0.160 | 0.115 / 0.129 / 0.152 | 0.0323 / 0.0223 / 0.0601 | 0.0322 / 0 / 0 |
| GGAAACCGAGCCCCC | 0.224 | 0.0819 / 0.145 / 0.0952 | 0.0162 / 0.0223 / 0 | 0 / 0 / 0 |
| GGAAACCGCCGACGC | 0.208 | 0.0983 / 0.0643 / 0.0571 | 0 / 0.0223 / 0 | 0 / 0 / 0 |
| GGAAACCGUUAAGAC | 0.224 | 0.377 / 0.177 / 0.286 | 0.129 / 0.0891 / 0.120 | 0.0161 / 0 / 0 |
| GGAAACCGGCUAUGC | 0.208 | 0.0655 / 0.129 / 0.0571 | 0 / 0 / 0 | 0 / 0 / 0 |
| GGAAACCGUAGCGGC | 0.128 | 0.0655 / 0.0803 / 0.114 | 0.0323 / 0 / 0.0200 | 0 / 0 / 0 |
| GGAAACCGUGCUAGC | 0.224 | 0.164 / 0.0643 / 0.0952 | 0 / 0 / 0 | 0.0161 / 0 / 0.0228 |
| GGAAACCGUGCUCCC | 0.256 | 0.0983 / 0.145 / 0.0762 | 0.0162 / 0 / 0.0200 | 0 / 0 / 0 |
| GGAAACCGCGCGUAC | 0.224 | 0.426 / 0.193 / 0.286 | 0.113 / 0.0891 / 0.0801 | 0.0161 / 0.0756 / 0.0684 |
| GGAAACCGUGGAGUC | 0.336 | 0.0655 / 0.0803 / 0.171 | 0 / 0 / 0.0200 | 0 / 0 / 0 |
| GGAAACCGUUAGUCC | 0.240 | 0.295 / 0.257 / 0.419 | 0.113 / 0.134 / 0.120 | 0.0644 / 0.0605 / 0.0912 |
| GGAAACCGGUCCCCC | 0.224 | 0.131 / 0.161 / 0.133 | 0.0162 / 0.0223 / 0 | 0 / 0 / 0 |
| GGAAACCGCUCCCGC | 0.176 | 0.0819 / 0.0803 / 0.0381 | 0 / 0 / 0 | 0.0161 / 0 / 0 |
| GGAAACCGCGUUGAC | 0.224 | 0.0655 / 0.0643 / 0.0190 | 0.0162 / 0.0223 / 0.0401 | 0 / 0 / 0 |
| GGAAACCGCAUAACC | 0.160 | 0.197 / 0.145 / 0.248 | 0.0162 / 0 / 0.0200 | 0.0483 / 0 / 0 |
| GGAAACCGAGCGGCC | 0.272 | 0.115 / 0.129 / 0.0571 | 0.0162 / 0 / 0 | 0 / 0 / 0 |
| GGAAACCGGCCAAGC | 0.0640 | 0.0655 / 0.0803 / 0.190 | 0 / 0 / 0 | 0 / 0 / 0 |
| GGAAACCGUGUGCUC | 0.128 | 0.0819 / 0.129 / 0.0762 | 0 / 0 / 0 | 0 / 0 / 0 |
| GGAAACCGCUCAUUC | 0.224 | 0.229 / 0.273 / 0.267 | 0.178 / 0.0668 / 0.0801 | 0.0322 / 0 / 0.0228 |
| GGAAACCGAGGAUUC | 0.416 | 0.0983 / 0.177 / 0.114 | 0.0162 / 0.0223 / 0 | 0.0322 / 0 / 0 |
| GGAAACCGAAAUCAC | 0.272 | 0.262 / 0.386 / 0.343 | 0.0970 / 0.0891 / 0.120 | 0.0644 / 0.0756 / 0.0684 |
| GGAAACCGGCAGGUC | 0.144 | 0.0983 / 0.145 / 0.0381 | 0.0162 / 0 / 0 | 0 / 0 / 0 |
| GGAAACCGACGGAUC | 0.320 | 0.0819 / 0.129 / 0 | 0 / 0 / 0 | 0 / 0 / 0 |
| GGAAACCGAGGCGCC | 0.240 | 0.0983 / 0.0643 / 0.0381 | 0 / 0 / 0 | 0.0161 / 0 / 0 |
| GGAAACCGACGCUAC | 0.224 | 0.409 / 0.337 / 0.381 | 0.129 / 0.0668 / 0.200 | 0.0322 / 0 / 0 |
| GGAAACCGAAUAAAC | 0.272 | 0.180 / 0.0482 / 0.0762 | 0.0162 / 0 / 0.0401 | 0 / 0 / 0 |
| GGAAACCGGGGGAGC | 0.256 | 0.0655 / 0.0964 / 0.114 | 0 / 0 / 0.0601 | 0 / 0 / 0 |
| GGAAACCGGCAUAGC | 0.128 | 0.0983 / 0.177 / 0.0190 | 0 / 0 / 0.0200 | 0 / 0 / 0 |
| GGAAACCGGGCUCAC | 0.224 | 0.180 / 0.0643 / 0.0571 | 0 / 0 / 0 | 0 / 0 / 0 |
| GGAAACCGUUUCAAC | 0.240 | 0.0491 / 0.0964 / 0.209 | 0 / 0 / 0 | 0 / 0 / 0 |
| GGAAACCGUACGAGC | 0.272 | 0.197 / 0.145 / 0.133 | 0.0162 / 0.0223 / 0 | 0 / 0 / 0 |
| GGAAACCGCAACUGC | 0.256 | 0.164 / 0.0964 / 0.0381 | 0 / 1.98 / 0 | 0 / 0 / 0 |

Samples held 43,870 to 66,106 reads, so the smallest values rest on one or two reads. For reference, wild type rose from 33.9 per thousand in the pool to 202, 200, 159 (inoculated region), 724, 746, 710 (leaf margin) and 856, 883, 880 (systemic leaves). The authors trace changes outside the varied positions to PCR and sequencing errors or to mutation in the plant; presence does not show that a variant is infectious alone.